Anti-infective test results gathered from many reports (values: NIAID ChemDB through PubChem).

Common to all: host cell toxicity; cell line: MDCK; endpoint: CC50

Two numbers with a dash give a range or band. Blank or dashed fields: not listed here. CCn: concentration that lowers growth or viability of the cells by n%. Lines come from different laboratories, so protocols vary.

O=C1C[C@@H](c2ccc(O)cc2)Oc2cc(O)c(-c3c(O)cc4c(c3O)C(=O)C[C@@H](c3ccc(O)cc3)O4)c(O)c21 ; method: visual reading ; result: 4.9 µg/mL
C1CCC(C2C3CC4CC(C3)CC2C4)NC1 ; result: ≥977 µM
CO[C@@H]1[C@@H](OC)[C@H](C)[C@@](O)(CC(=O)O)O[C@H]1[C@H](C)[C@H]1O[C@@]2(CC[C@@](C)([C@H]3CC[C@@](C)([C@@H]4O[C@@H]([C@H]5O[C@](C)(O)[C@H](C)C[C@@H]5C)C[C@@H]4O[C@@H]4C[C@H](OC)[C@@H](OC)[C@H](C)O4)O3)O2)C[C@H](O)[C@H]1C ; result: >10 µM
COc1cc(O)c(CC=C(C)C)c2c1C(=O)CC(c1ccc(O)cc1)O2 ; result: 25 µg/mL
O=c1cc(-c2ccc(Oc3c(O)cc4oc(-c5ccc(O)cc5)cc(=O)c4c3O)cc2)oc2cc(O)cc(O)c12 ; method: visual reading ; result: 1.4 µg/mL
CC1(C)C2CC[C@]3(C)C(CC=C4C5C[C@@](C)(C(=O)O)CC[C@]5(C)CC[C@]43C)[C@@]2(C)CC[C@@H]1O[C@@H]1O[C@H](C(=O)O)[C@@H](O)[C@H](O)[C@H]1O[C@@H]1OC(C(=O)O)[C@@H](O)[C@H](O)[C@H]1O ; method: ATP ; result: >100 µM
C#Cc1c(C(N)=O)ncn1[C@@H]1O[C@H](CO)[C@@H](O)[C@H]1O ; method: MTT / neutral red ; result: 5.6 µg/mL
Cc1cn([C@@H]2C[C@@H](O)[C@H](CO)O2)c(=O)[nH]c1=O ; result: >100 µM
CC1(C)C2CC[C@]3(C)C(C(=O)C=C4C5C[C@]6(C)C[C@@H](OC6=O)[C@]5(C)CC[C@]43C)[C@@]2(C)CC[C@@H]1O[C@@H]1O[C@H](C(=O)O)[C@@H](O)[C@H](O)[C@H]1O[C@@H]1OC(C(=O)O)[C@@H](O)[C@H](O)[C@H]1O ; method: ATP ; result: >100 µM
CCOc1cc(OCC)nc(NC(=S)NC(=O)c2cccnc2Cl)n1 ; method: MTS ; result: >300 µM
Nc1ccn([C@@H]2C[C@@H](O)[C@H](CO)O2)c(=O)n1 ; result: >100 µM
COc1cc(OC)nc(NC(=S)NC(=O)c2ccc(-c3ccccc3Cl)o2)n1 ; method: MTS ; result: >300 µM
Nc1ccn([C@@H]2C[C@@H](O)[C@H](CO)O2)c(=O)n1 ; result: >100 µM
Cc1cn([C@@H]2C[C@@H](O)[C@H](CO)O2)c(=O)[nH]c1=O ; result: >100 µM
COc1cc(C)nc(NC(=S)NC(=O)c2ccc(-c3ccc([N+](=O)[O-])cc3)o2)n1 ; method: MTS ; result: >300 µM
C1CCN(CC2CC2)C(C2C3CC4CC(C3)CC2C4)C1 ; result: 977 µM
COc1cc(C)nc(NC(=S)NC(=O)c2ccc(-c3ccccc3Cl)o2)n1 ; method: MTS ; result: >300 µM
NC12CC3CC(CC(C3)C1)C2 ; result: 40–1000 µM

For reference, 2 entries again:

compound,method,result
CC1(C)C2CC[C@]3(C)C(C(=O)C=C4C5C[C@]6(C)C[C@@H](OC6=O)[C@]5(C)CC[C@]43C)[C@@]2(C)CC[C@@H]1O[C@@H]1O[C@H](C(=O)O)[C@@H](O)[C@H](O)[C@H]1O[C@@H]1OC(C(=O)O)[C@@H](O)[C@H](O)[C@H]1O,ATP,>100 µM
Cc1cn([C@@H]2C[C@@H](O)[C@H](CO)O2)c(=O)[nH]c1=O,-,>100 µM